PubChem BioAssay AID504761 – Drosophila RNAi Screening Center, 2011
In all, the deposit lists about 22,000 reagents; this is a random part of those with a known target gene and a result. Over the whole deposit, 116 (0.52%) got an active call. 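Calls depend on retest data that are not deposited; infection was ranked per plate without normalising between plates; the unit of the infection score is not given.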 Raw values are not corrected between plates. Unmarked entries are inactive. Names joined by + are all predicted targets of the reagent. Reagent sequences are not shown. Not given: the amount of reagent, the time to read-out.

- Screen: 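Genome-wide fly cell screen for genes dengue virus requires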 (primary screen)
- System: D.Mel-2 cells from Drosophila
- Knock-down reagent: long dsRNA against Drosophila genes
- Treatment: infection with dengue virus type 2; dose and infection time not stated
- Read-out: 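Per well on two replicate plates, imaging gave the percent of cells positive for viral envelope protein, ranked by infection, and a nuclear count of cells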
- Reading the numbers: infection score: higher = more virus-infected cells; cell count: higher = more cells in the well
- Rule for the call: 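Low infection ranks in the two replicates (chance level up to 0.065) followed by a retest with a 1.5-fold or larger significant decrease, p below 0.05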
- Calls: active = confirmed: knock-down lowers infection; inactive = not picked or not confirmed

no.	predicted target	DRSC id	infection score, replicate 1	infection score, replicate 2	cell count, replicate 1	cell count, replicate 2
1	Noa36 (GeneID 43384)	DRSC16761	2.54	5.66	5190	6481
2	CG9503 (GeneID 32424)	DRSC20186	7.94	10.6	6483	7083
3	CG9503 (GeneID 32424)	DRSC21766	8.33	6.18	6689	6570
4	Or13a (GeneID 32562)	DRSC20265	11.8	1.83	5107	6540
5	nxf2 (GeneID 39843)	DRSC10403	6.59	7.29	6886	6944
6	nxf2 (GeneID 39843)	DRSC26721	1.13	9.18	6908	5762
7	CG15696 (GeneID 42469)	DRSC15118	0.97	1.04	6568	6614
8	CG15696 (GeneID 42469)	DRSC25170	1.09	5.54	6688	6657
9	CG32295 (GeneID 317962)	DRSC23259	8.3	12.5	7286	6798
10	galla-1 (GeneID 246485)	DRSC05987	2.45	3.92	6203	5563
11	Spn43Ab (GeneID 45040)	DRSC06781	6.06	13.3	6520	5819
12	Spn43Ab (GeneID 45040)	DRSC28317	10.1	20.3	3859	4765
13	CG14005 (GeneID 33808)	DRSC02337	4.15	5.62	6263	6372
14	tup (GeneID 35147)	DRSC03627	8.1	10.1	6283	6432
15	tup (GeneID 35147)	DRSC23978	2.03	7.55	6765	6704
16	CG15025 (GeneID 42328)	DRSC15031	1.88	2.33	6611	6640
17	CG42594 (GeneID 8674091)	DRSC18408	2.27	6.18	6080	6098
18	CG42594 (GeneID 8674091)	DRSC22978	0.72	10.2	7098	6740
19	CG42594 (GeneID 8674091)	DRSC25767	9.79	3.41	5998	5901
20	CG42594 (GeneID 8674091)	DRSC26285	8.04	2.69	6120	6138
21	CG42594 (GeneID 8674091)	DRSC28979		20	394	5377
22	not (GeneID 40030)	DRSC11378	10.2	7.26	6013	6527
23	dco (GeneID 43673)	DRSC16929	8.08	1.52	198	5788
24	dco (GeneID 43673)	DRSC29211	9.86	12.2	4038	5572
25	Dup99B (GeneID 2768691)	DRSC22877	1.05	2.76	5984	6459
26	Dup99B (GeneID 2768691)	DRSC29633	21.6	30.5	5205	5149
27	eca (GeneID 41177)	DRSC22290	1.21	1.45	5722	415
28	RpL5 (GeneID 3355124)	DRSC03801	2.36	3.23	1867	1704
29	RpL5 (GeneID 3355124)	DRSC29038	11.1		1816	212
30	Hsp70Bb + Hsp70Ba + Hsp70Bbb	DRSC28114	42.6	25.5	5907	5603
31	CG7506 (GeneID 38857)	DRSC10860	9.88	13.1	5497	5288
32	CG7423 (GeneID 32894)	DRSC20044	5.08	1.22	6261	5322
33	Pp1-Y2 (GeneID 3355173)	DRSC21608	6.73	15.6	6062	4702
34	Pvf3 (GeneID 33995)	DRSC02284			548	527
35	Pvf3 (GeneID 33995)	DRSC02285	5.01	9.44	1797	2584
36	Pvf3 (GeneID 33995)	DRSC02286	15.2	3.18	5930	1037
37	Pvf3 (GeneID 33995)	DRSC02751	12.5	10.3	6057	1719
38	Pvf3 (GeneID 33995)	DRSC25172	6.43	5.77	6172	6433
39	Pvf3 (GeneID 33995)	DRSC28641	14.6	7.32	1577	1229
40	CG4213 (GeneID 33209)	DRSC00641	32.9	14.8	5650	6670
41	CG18449 (GeneID 35810)	DRSC06754	2.15	14.7	6979	4989
42	Jon66Cii (GeneID 38953)	DRSC10778	4.05	1.6	6127	5803
43	Jon66Cii (GeneID 38953)	DRSC28611	4.7		937	296
44	CG2616 (GeneID 40915)	DRSC15440	6.98	16.9	6220	5715
45	CG2616 (GeneID 40915)	DRSC24316	3.68	5.02	6175	6121
46	E(spl)mbeta-HLH (GeneID 43152)	DRSC16697	11.1	1.32	6630	6293
47	CG13539 (GeneID 37680)	DRSC04181	5.3	11.8	1114	6254
48	CG13539 (GeneID 37680)	DRSC28683	19	16.1	4346	4536
49	Brd7-9 (GeneID 34062)	DRSC03017	6.47	4.5	6384	5960
50	Brd7-9 (GeneID 34062)	DRSC29592			363	361
51	CG9467 (GeneID 41207)	DRSC16498	7.93	5.4	6723	6611
52	CG6686 (GeneID 34608)	DRSC02979	18.3	7.97	4117	3812
53	CG6686 (GeneID 34608)	DRSC27705	25.6	17.4	4472	4114
54	cd (GeneID 42681)	DRSC16157	15.1	5.23	2934	6346
55	Cubn2 (GeneID 39334)	DRSC10561	1.8	6.6	6445	5712
56	Cubn2 (GeneID 39334)	DRSC22044	1	0.64	6785	6448
57	Cyt-c-d (GeneID 34995)	DRSC03309	11.2	1.65	5864	6242
58	Cyt-c-d (GeneID 34995)	DRSC30051	2.01	0.9	6082	5450
59	CG17807 (GeneID 37585)	DRSC04296	10.3	32.3	6457	2516
60	CG17807 (GeneID 37585)	DRSC26388	5.48	2.89	6096	6343
61	mRpL3 (GeneID 32523)	DRSC20100	3.45	23.6	3822	5155
62	CG42272 (GeneID 318020)	DRSC08766	4.14	2.4	4763	1914
63	CG42272 (GeneID 318020)	DRSC22502	3.04	7.43	5430	5799
64	CG42272 (GeneID 318020)	DRSC23490	4.58	17.5	6828	6109
65	CG42272 (GeneID 318020)	DRSC27670	2.38	7.34	6231	6349
66	Gr94a (GeneID 117339)	DRSC13597	6.33	6.14	6509	5925
67	CG14561 (GeneID 40447)	DRSC11722	4.08	3.04	6295	6651
68	Elba2 (GeneID 33442)	DRSC00731	3.94	26.8	6197	4003
69	Elba2 (GeneID 33442)	DRSC28543	14.2	12.8	4806	5687
70	Alg1 (GeneID 42146)	DRSC15297		28.5	431	3875
71	Alg1 (GeneID 42146)	DRSC29409			333	363
72	CG1239 (GeneID 40706)	DRSC12204	2.18	9.48	6425	6385
73	CG1239 (GeneID 40706)	DRSC27944	4.92	15.5	5736	5697
74	AANATL6 (GeneID 37212)	DRSC06773	2.76	2.84	6460	6364

Not a retest: entries from further up.
no.	predicted target	DRSC id	infection score, replicate 1	infection score, replicate 2	cell count, replicate 1	cell count, replicate 2
6	nxf2 (GeneID 39843)	DRSC26721	1.13	9.18	6908	5762
7	CG15696 (GeneID 42469)	DRSC15118	0.97	1.04	6568	6614
8	CG15696 (GeneID 42469)	DRSC25170	1.09	5.54	6688	6657
9	CG32295 (GeneID 317962)	DRSC23259	8.3	12.5	7286	6798
10	galla-1 (GeneID 246485)	DRSC05987	2.45	3.92	6203	5563
11	Spn43Ab (GeneID 45040)	DRSC06781	6.06	13.3	6520	5819
12	Spn43Ab (GeneID 45040)	DRSC28317	10.1	20.3	3859	4765
13	CG14005 (GeneID 33808)	DRSC02337	4.15	5.62	6263	6372
14	tup (GeneID 35147)	DRSC03627	8.1	10.1	6283	6432
15	tup (GeneID 35147)	DRSC23978	2.03	7.55	6765	6704
16	CG15025 (GeneID 42328)	DRSC15031	1.88	2.33	6611	6640
17	CG42594 (GeneID 8674091)	DRSC18408	2.27	6.18	6080	6098
